Compound potency records, mixed from different reports. Data source: NIAID ChemDB in PubChem.

Shared fields: whole-cell or culture tests; species: HIV-1; measure: inhibition

Inhibition is in % at the dose shown (toxicity tests: loss of growth or viability). Conditions beyond the fields shown may differ between rows.

{"smiles": "Nc1nc(=O)n([C@@H]2C[Se][C@H](CO)O2)cc1F", "read by": "RT activity", "dose": "1.05 µM", "cell line": "PBMC", "strain": "LAV", "result": "90%"}
{"smiles": "CCN1c2ncccc2-c2nccn2-c2ccc(OC)nc21", "read by": "syncytia", "dose": "0.1 µM", "conditions": "7 d", "cell line": "C8166", "result": "100%"}
{"smiles": "OC[C@@H]1CC[C@H](n2cnc3cncnc32)O1", "read by": "cytopathic effect / trypan blue", "dose": "200 µM", "cell line": "ATH8", "strain": "IIIB", "result": "3%"}
{"smiles": "Nc1ccn([C@@H]2CS[C@H](CO)O2)c(=O)n1", "read by": "RT activity", "dose": "5 µM", "cell line": "PBL (resting) + PBL", "strain": "BZ X4", "result": "100%"}
{"smiles": "CCCCN1C(=O)C(=C/C=C/C=C2/Oc3ccccc3N2CCCS(=O)(=O)O)C(=O)N(CCCC)C1=S", "read by": "ELISA", "dose": "200 µg/mL", "conditions": "11 d", "cell line": "PBMC", "strain": "IIIB", "result": "85%"}
{"smiles": "CC(C)(S)[C@@H](N)C(=O)O", "read by": "cytopathic effect / MTT", "dose": "100 µM", "cell line": "CEM", "strain": "IIIB", "result": "29.3%"}
{"smiles": "C[C@]12CC[C@@H]3c4ccc(O)cc4CC[C@H]3[C@@H]1CC[C@@H]2O", "read by": "p24", "dose": "1 µM", "cell line": "U1", "result": "-76%"}
{"smiles": "Cc1ccc(C(=O)Nc2ccc(S(=O)(=O)O)c3cc(S(=O)(=O)O)cc(S(=O)(=O)O)c23)cc1NC(=O)c1cccc(NC(=O)Nc2cccc(C(=O)Nc3cc(C(=O)Nc4ccc(S(=O)(=O)O)c5cc(S(=O)(=O)O)cc(S(=O)(=O)O)c45)ccc3C)c2)c1", "read by": "cytopathic effect", "dose": "50 µg/mL", "cell line": "ATH8", "strain": "LAV Laboratory strain", "result": "100%"}
{"smiles": "Cc1cn([C@H]2C=C[C@@H](CO)O2)c(=O)[nH]c1=O", "read by": "cytopathic effect / MTT", "dose": "2.7 µM", "cell line": "MT-4", "strain": "IIIB", "result": "70%"}
{"smiles": "Nc1nc(I)c2ncn([C@H]3CC[C@@H](CO)O3)c2n1", "read by": "cytopathic effect / trypan blue", "dose": "20 µM", "cell line": "MT-2", "strain": "IIIB", "result": "97%"}
{"smiles": "N[C@@H](CCC(=O)N[C@@H](CS)C(=O)NCC(=O)O)C(=O)O", "read by": "p24", "dose": "3000 µM", "cell line": "MOLT-4", "strain": "IIIB", "result": "30%"}
{"smiles": "CC(C)Oc1ccc(OC(C)C)c2c1-c1nc3nc(nc4[nH]c(nc5[nH]c(nc-2n1)c(SCCCC(=O)O)c5SCCCC(=O)O)c(SCCCC(=O)O)c4SCCCC(=O)O)C(SCCCC(=O)O)=C3SCCCC(=O)O", "read by": "β-galactosidase", "dose": "5 µg/mL", "cell line": "MAGI", "strain": "IIIB", "result": "72%"}
{"smiles": "NCCS", "read by": "cytopathic effect / MTT", "dose": "100 µM", "cell line": "CEM", "strain": "IIIB", "result": "100%"}
{"smiles": "Nc1nc(N)c2ncn([C@H]3CC[C@@H](CO)O3)c2n1", "read by": "cytopathic effect / trypan blue", "dose": "20 µM", "cell line": "MT-2", "strain": "IIIB", "result": "3%"}
{"smiles": "N[C@@H](CCC(=O)N[C@@H](CS)C(=O)NCC(=O)O)C(=O)O", "read by": "RT activity", "dose": "1838 µM", "cell line": "H9(HIV-1(IIIB)) + H9", "strain": "IIIB", "result": "0%"}
{"smiles": "Cn1cc(C(=O)O)c(=O)c2cc(F)c(N3CC=C(c4ccccc4)CC3)c(C(F)(F)F)c21", "read by": "p24", "dose": "0.4 µM", "cell line": "MOLT-4/U0(HIV-1(IIIB)) + MOLT-4", "strain": "IIIB", "result": "90%"}
{"smiles": "O=C(O)P(=O)(O)O", "read by": "RT activity", "dose": "680 µM", "cell line": "H9", "strain": "III", "result": "100%"}
{"smiles": "Cc1cn([C@H]2C[C@H](F)[C@@H](CO)O2)c(=O)[nH]c1=O", "read by": "RT activity", "dose": "0.025 µM", "cell line": "MT-4", "strain": "IIIB", "result": "95%"}
{"smiles": "C/C=C(\\C)C(=O)O[C@@H]1[C@@H](OC(=O)c2ccccc2)[C@]2(C)[C@@H](C(C)=O)CC[C@@]23O[C@]32CC=C3C[C@@H](O[C@H]4C[C@@H](OC)C(O[C@@H]5OC(C)C(O[C@@H]6OC(CO)C(O)[C@H](O)C6O)[C@H](OC)C5O)C(C)O4)CC[C@]3(C)[C@@H]12", "read by": "luciferase", "dose": "30 µM", "conditions": "pseudotyped", "cell line": "SupT1", "result": "13.5%"}
{"smiles": "Nc1nc(Cl)nc2c1ncn2[C@H]1CC[C@@H](CO)O1", "read by": "cytopathic effect / trypan blue", "dose": "2 µM", "cell line": "MT-2", "strain": "IIIB", "result": "2%"}
{"smiles": "N[C@@H](CS)C(=O)O", "read by": "cytopathic effect / MTT", "dose": "100 µM", "cell line": "CEM", "strain": "IIIB", "result": "47%"}
{"smiles": "NC(=O)c1ncn([C@@H]2O[C@H](CO)[C@@H](O)[C@H]2O)n1", "read by": "cytopathic effect", "dose": "100 µg/mL", "cell line": "ATH8", "strain": "LAV Laboratory strain", "result": "0%"}
{"smiles": "CC(C)(C)NC(=O)[C@@H]1C[C@@H]2CCCC[C@@H]2CN1C[C@@H](O)[C@H](Cc1ccccc1)NC(=O)[C@H](CC(N)=O)NC(=O)c1ccc2ccccc2n1", "read by": "p24", "dose": "0.0151 µM", "cell line": "MT-2", "strain": "HXB2", "changes": "PR-L90M", "result": "90%"}
{"smiles": "Nc1ncnc2c1ncn2[C@H]1CC[C@@H](CO)O1", "read by": "RT activity", "dose": "20 µM", "cell line": "C8166", "strain": "HXBc2", "result": "75%"}
{"smiles": "Cc1cn([C@H]2C[C@H](N=[N+]=[N-])[C@@H](CO)O2)c(=O)[nH]c1=O", "read by": "RT activity", "dose": "4 µM", "cell line": "PBL (activated) + PBL", "strain": "BZ X4", "result": "99%"}
{"smiles": "CCc1cn([C@H]2C[C@H](N=[N+]=[N-])[C@@H](CO)O2)c(=O)[nH]c1=O", "read by": "RT activity", "dose": "0.1 µM", "cell line": "PBMC", "strain": "LAV", "result": "99.8%"}
{"smiles": "C/C=C(\\C)C(=O)O[C@H]1[C@H]2[C@@H](CC[C@H]3C[C@@H](O[C@H]4C[C@@H](OC)[C@H](O[C@@H]5OC(C)[C@@H](O[C@@H]6OC(CO)[C@@H](O)[C@H](O)C6O)[C@H](OC)C5O)C(C)O4)CC[C@@]32C)[C@@]2(O)CC[C@H](C(C)=O)[C@@]2(C)[C@@H]1OC(=O)/C(C)=C/C", "read by": "luciferase", "dose": "30 µM", "conditions": "pseudotyped", "cell line": "SupT1", "result": "24.78%"}
{"smiles": "COc1ccc(CN[C@@H](C(=O)N[C@H]2c3ccccc3C[C@H]2O)[C@H](O)[C@H](Cc2ccccc2)NC(=O)[C@@H](NC(=O)OCc2ccccc2)C(C)(C)C)cc1", "read by": "p24", "dose": "0.28 µM", "cell line": "Primary T4 cells + T4", "strain": "A018C", "result": "90%"}
{"smiles": "O=C(O)P(=O)(O)O", "read by": "cytopathic effect", "dose": "100 µg/mL", "cell line": "ATH8", "strain": "LAV Laboratory strain", "result": "87%"}
{"smiles": "C[C@H](NC(=O)[C@H](CCCN=C(N)N)NC(=O)c1ccc(CNCc2ccccn2)cc1)c1cccc2ccccc12", "read by": "cytopathic effect / MTT", "dose": "0.06 µM", "cell line": "MT-4", "strain": "IIIB X4 laboratory isolate", "result": "~100%"}
{"smiles": "OC[C@@H]1CC[C@H](n2cnc3c(Cl)ncnc32)O1", "read by": "cytopathic effect / trypan blue", "dose": "20 µM", "cell line": "ATH9 + ATH8", "strain": "IIIB", "result": "100%"}
{"smiles": "COc1ccc(Cc2nccc3cc(OC)c(OC)cc23)cc1OC", "read by": "RT activity", "dose": "10 µg/mL", "cell line": "PBMC", "strain": "IIIB", "result": "62.1%"}
{"smiles": "O=C1N(Cc2ccc(CO)cc2)[C@H](Cc2ccccc2)[C@H](O)[C@@H](O)[C@@H](Cc2ccccc2)N1Cc1ccc(CO)cc1", "read by": "p24", "dose": "0.25 µM", "cell line": "PBMC", "strain": "A012D POST AZT", "result": "90%"}
{"smiles": "O=c1[nH]cnc2c1ncn2[C@H]1CC[C@@H](CO)O1", "read by": "p24", "dose": "2 µM", "cell line": "PBMC", "strain": "IIIB", "result": "<20%"}
{"smiles": "O=C1Nc2ccc(Cl)cc2[C@@](C#CC2CC2)(C(F)(F)F)O1", "read by": "luciferase", "dose": "20 µM", "conditions": "pseudotyped", "cell line": "SupT1", "result": "88.54%"}
{"smiles": "O=C(O)/C=C/c1ccc(O)c(O)c1", "read by": "cytopathic effect", "dose": "80 µg/mL", "cell line": "MT-2", "strain": "LAI", "result": "12%"}
{"smiles": "CN=C1CN=C(c2ccc[nH]2)c2cc(Cl)ccc2N1", "read by": "cytopathic effect / MTT", "dose": "1 µM", "cell line": "MOLT-4", "strain": "IIIB", "result": "100%"}
{"smiles": "C/C=C(\\C)C(=O)O[C@@H]1[C@@H](OC(=O)c2ccccc2)[C@H]2[C@@H](CC[C@H]3C[C@@H](O[C@H]4C[C@@H](OC)[C@H](O[C@@H]5OC(C)[C@@H](O[C@@H]6OC(CO)[C@@H](O)[C@H](O)C6O)[C@H](OC)C5O)C(C)O4)CC[C@@]32C)[C@@]2(O)CC[C@H](C(C)=O)[C@@]12C", "read by": "luciferase", "dose": "30 µM", "conditions": "pseudotyped", "cell line": "SupT1", "result": "15.63%"}
{"smiles": "Cc1cn([C@H]2C[C@H](N=[N+]=[N-])[C@@H](CO)O2)c(=O)[nH]c1=O", "read by": "p24", "dose": "1 µM", "cell line": "MOLT-4", "strain": "IIIB", "result": "95%"}
{"smiles": "COC1=C2[C@@H]3Cc4ccc(OC)c(O)c4[C@]2(CCN3)CC(OC(C)=O)C1OC(C)=O", "read by": "cytopathic effect / visual reading", "dose": "7.8 µg/mL", "cell line": "MT-4", "strain": "IIIB", "result": "100%"}
{"smiles": "Cc1ccc(-c2ccc3c(c2)C=C(C(=O)Nc2ccc(C[N+](C)(C)C4CCOCC4)cc2)CCC3)cc1", "read by": "p24", "dose": "0.027 µM", "cell line": "PBMC", "strain": "CTV", "result": "90%"}
{"smiles": "C/C=C(\\C)C(=O)O[C@@H]1[C@@H](OC(=O)c2ccccc2)[C@@H]2[C@@]3(C)CC[C@H](O[C@H]4C[C@@H](OC)C(O[C@@H]5OC(C)C(O[C@@H]6OC(CO)C(O[C@@H]7OC(CO)C(O)[C@H](O)C7O)[C@H](O)C6O)[C@H](OC)C5O)C(C)O4)C[C@@H]3CC[C@@]2(O)[C@@]2(O)CC[C@H](C(C)=O)[C@@]12C", "read by": "luciferase", "dose": "30 µM", "conditions": "pseudotyped", "cell line": "SupT1", "result": "31.36%"}
{"smiles": "CC(C)(C)NC(=O)[C@@H]1C[C@@H]2CCCC[C@@H]2CN1C[C@@H](O)[C@H](Cc1ccccc1)NC(=O)[C@H](CC(N)=O)NC(=O)c1ccc2ccccc2n1", "read by": "p24", "dose": "0.016 µM", "cell line": "Macrophage + Monocytes/macrophages", "strain": "BaL", "result": "30%"}
{"smiles": "Nc1ncnc2c1ncn2[C@@H]1C=C(CO)[C@@H](O)[C@H]1O", "read by": "cytopathic effect", "dose": "5 µg/mL", "cell line": "ATH8", "strain": "LAV Laboratory strain", "result": "0%"}
{"smiles": "OC[C@@H]1CC[C@H](n2cnc3c(I)ncnc32)O1", "read by": "cytopathic effect / trypan blue", "dose": "20 µM", "cell line": "ATH8", "strain": "IIIB", "result": "41%"}
{"smiles": "CC[C@H](C)C(=O)O[C@H]1C[C@@H](C)C=C2C=C[C@H](C)[C@H](CC[C@@H]3C[C@@H](O)CC(=O)O3)[C@H]21", "read by": "p24", "dose": "50 µM", "cell line": "PBMC", "strain": "92US151 R5X4 clinical variant", "result": "58.6%"}